{
  "source": "paper PMC8938504",
  "about": "(Nature Communications, 2022)",
  "binders": {"B1": {"name": "MBP:Pikp-1_HMA (Pikp-1 HMA domain fused to the maltose-binding protein) (domain or fragment)", "chain": "GLKQKIVIKVAMEGNNCRSKAMALVASTGGVDSVALVGDLRDKIEVVGYGIDPIKLISALRKKVGDAELLQVSQANKD"}},
  "target": "6×His-tagged AVR-PikD (Magnaporthe oryzae, UniProt C4B8B8 22-113)",
  "conditions": "both partners purified",
  "data": [
    {"binder": "B1", "values": [
      {"measurement": "binding result", "result": "binds"}
    ]}
  ]
}
